Results of unrelated studies side by side (data: NIAID ChemDB).

Shared fields: host cell toxicity; cell line: VERO; read-out: CC50

Rows are shuffled and stem from different studies. Blank or dashed fields: not listed here. CCn is the concentration with n% toxicity to the cells.

structure | read by | value
CO/N=C1/C(=O)N(CCn2cc(CN3CCN(c4cc5c(cc4F)c(=O)c(C(=O)O)cn5C4CC4)CC3)nn2)c2ccccc21 | MTT | 20.35 µM
Nc1cc2nc3ccccc3nc2cc1N |  | 4.64 µg/mL
CO[C@H]1/C=C/O[C@@]2(C)Oc3c(C)c(O)c4c(O)c(c(/C=N/N5CCN(C)CC5)c(O)c4c3C2=O)NC(=O)/C(C)=C\C=C\[C@H](C)[C@H](O)[C@@H](C)[C@@H](O)[C@@H](C)[C@H](OC(C)=O)[C@@H]1C | MTT | >75.94 µM
Cc1cc(C)c2cc(C(=O)NC3CCCCCC3)[nH]c2c1 | resazurin | >200 µM
CC(=O)C1=C(C(=O)O)[NH+]([O-])C2C=CC=CC2[NH+]1[O-] |  | 35.98 µg/mL
COc1cccc(N2CCN(C(=O)Cc3nn(Cc4ccc(Br)cc4F)c(=O)c4ccccc34)CC2)c1 | MTT | >111 µM
Oc1ccccc1O |  | 14.5 µg/mL
Nc1ccn([C@@H]2CS[C@H](CO)O2)c(=O)n1 |  | >100 µM
O=C(Cc1nn(Cc2ccc(Br)cc2F)c(=O)c2ccccc12)N1CCN(c2ccccn2)CC1 | MTT | <117 µM
CCN(CC)CCNc1ccc(C)c2sc3ccc(OC)cc3c(=O)c12 |  | 1.29 µg/mL
NC(=O)c1nnn([C@@H]2C[C@H](CCP(=O)(O)O)C[C@H]2O)c1N |  | >100 µM
Cc1cn(CC2C=CC(CS[As](C)C)O2)c(=O)[nH]c1=O |  | 3.69 µg/mL
Nc1ncnc2c1ncn2[C@@H]1C=C(CO)[C@@H](O)[C@H]1O |  | 250 µg/mL
CO[C@H]1/C=C/O[C@@]2(C)Oc3c(C)c(O)c4c(O)c(c(/C=N/N5CCN(C)CC5)c(O)c4c3C2=O)NC(=O)/C(C)=C\C=C\[C@H](C)[C@H](O)[C@@H](C)[C@@H](O)[C@@H](C)[C@H](OC(C)=O)[C@@H]1C | MTT | 100 µg/mL
Cc1cn([C@H]2C[C@H](N=[N+]=[N-])[C@@H](CO)O2)c(=O)nc1N |  | >400 µM
O=C(NC(=O)C1N=C(c2ccccc2)c2ccccc2NC1=O)C1CCCCC1 |  | 2 µM
O=c1cnn([C@@H]2O[C@H](CO)[C@@H](O)[C@H]2O)c(=O)[nH]1 |  | 0.08 µg/mL
COC(=O)C(N)CCSC[C@H]1O[C@@H](n2ccc3c(N)ncnc32)[C@H](O)[C@@H]1O |  | 200 µg/mL
O=c1cnn([C@@H]2O[C@H](CO)[C@@H](O)[C@H]2O)c(=O)[nH]1 | neutral red | 157 µg/mL
O=C(NC1N=C(c2ccccc2)c2cc(Cl)ccc2NC1=O)C1CCCCC1 |  | 5 µM
O=c1[nH]cnc2c([C@@H]3O[C@H](CO)[C@@H](O)[C@H]3O)[nH]nc12 | neutral red | 43 µg/mL
O=C1/C(=C/c2ccc(OCCCN3CCOCC3)cc2)CCC/C1=C\c1ccc(OCCCN2CCOCC2)cc1 | MTT | >9 µM
O=c1[nH]cnc2c1ncn2[C@@H]1C=C(CO)[C@@H](O)[C@H]1O |  | >50 µg/mL
CCC/C(C)=N/NC(=S)SC |  | 17 µg/mL
COc1cc(/C=C2\CC/C(=C\c3ccc(OCCn4ccnc4)c(OC)c3)C2=O)ccc1OCCn1ccnc1 | MTT | >9 µM
O=c1[nH]cnc2c1ncn2[C@H]1CC[C@@H](CO)O1 |  | >100 µM
O=C(NC(=O)N1CCCCC1)C1N=C(c2ccccc2)c2ccccc2NC1=O |  | 2 µM
CSC(=S)N/N=C(\C)c1ccc[nH]1 |  | 25 µg/mL
Nc1nccc2c1ncn2[C@@H]1C=C[C@@H](O)[C@H]1O |  | 2.2 µg/mL
NC(=S)NN=C1CCCCCCC1 |  | 20.71 µg/mL
O=C(NC1N=C(c2ccccc2)c2ccccc2NC1=O)c1ccc(Br)cc1 |  | 5 µM
Cc1cn([C@H]2C[C@H](N=[N+]=[N-])[C@@H](CO)O2)c(=O)[nH]c1=O | MTT | 29 µM
C/C(=C\c1c(C)[nH]c2ccccc12)[N+](=O)[O-] |  | 1.6 µg/mL
CCN(CC)Cc1c(-c2ccccc2)oc(-c2ccccc2)c1CN(CC)CC |  | 19.21 µg/mL
CC(C)(C)OC(=O)N1C[C@H]2CC(n3cnc4c(Cl)ncnc43)[C@@H]1C2 | MTS | 53 µM
Nc1nc(Cl)cc(NCCCCCCCCCCCCNc2cc(Cl)nc(N)n2)n1 |  | >10 µg/mL
CCN(CC)C(=O)NC1N=C(c2ccccc2)c2ccccc2NC1=O |  | 4 µM
CCOC(=O)c1c[nH]cc1-c1ccc(Cl)cc1 |  | 4 µg/mL
O=c1cc[nH]c(=S)[nH]1 |  | 100 µg/mL
CCN(CC)CCNc1ccc2ncn3c4ccc(O)cc4c(=O)c1c23.Cl |  | 0.85 µg/mL
O=C1C2=Nc3ccncc3CN2c2ccc(Cl)cc21 |  | 2 µg/mL
N#Cc1c(SCCCBr)nsc1-c1ccccc1 |  | 25 µg/mL
O=[N+]([O-])c1c(Cl)cccc1-c1c[nH]cc1Cl |  | 8 µg/mL
NC1=NCN([C@@H]2O[C@H](CO)[C@@H](O)[C@H]2O)C(=O)N1 | neutral red | 9.8 µg/mL
Cc1cc2cccnc2c2ncccc12 |  | <2.05 µg/mL
C[C@@H]1CC[C@H]2[C@@H](C)C(=O)O[C@@H]3OC4(C)CC[C@@H]1[C@]32OO4 | MTT | >9 µM
COC1(CO)C(=O)N(C)CC(=O)N1C |  | >10 µg/mL
O=C([O-])C(F)(F)F.O=C([O-])C(F)(F)F.c1nc([NH2+]C2CC2)c2ncn(C3C[C@@H]4CC[C@H]3[NH2+]4)c2n1 | MTS | >100 µM
CCOC(=O)c1noc(/C=C/c2cccc3ccccc23)c1C(=O)c1ccccc1 |  | >128 µM
Nc1ncnc2c1ccn2[C@@H]1O[C@H](CSCCC(NC(=O)C(F)(F)F)C(=O)O)[C@@H](O)[C@H]1O |  | >400 µg/mL
Cc1cn([C@@H]2C=C(F)[C@H](CO)S2)c(=O)[nH]c1=O | MTT | >100 µM
NC(=O)c1nnn([C@@H]2C[C@H](CO)C[C@H]2O)c1N |  | >100 µM
NNC(=O)c1c[nH]cc1-c1ccc(Cl)cc1 |  | 16 µg/mL
Cc1cn([C@H]2C[C@H](N=[N+]=[N-])[C@@H](COP(=O)(O)OC[C@H]3CC[C@@H](n4cnc5c(N)ncnc54)O3)O2)c(=O)[nH]c1=O |  | >200 µM
Nc1ncnc2c1ncn2[C@H]1C[C@@H](O)[C@@H](CO)O1 |  | 400 µg/mL
Cc1cn([C@H]2C[C@H](N=[N+]=[N-])[C@@H](CO)O2)c(=O)[nH]c1=O |  | 29 µM
CCOC(=O)c1noc(/C=C/c2ccc(Cl)cc2)c1C(=O)c1ccccc1 |  | >128 µM
Cn1cc(C(=O)O)c(=O)c2cc([N+](=O)[O-])c3cccnc3c21 | luminescence | >100 µg/mL
COC(=O)c1cn([C@@H]2C[C@H](CO)C[C@H]2O)nn1 |  | >100 µM
Cc1[nH]c2ccccc2c1/C=N/N(C)c1ccccc1 |  | 5.96 µg/mL
Nc1ccn([C@H]2C=C(F)[C@@H](CO)S2)c(=O)n1 | MTT | >100 µM
CN(C)c1nsc(-c2ccccc2)c1C#N |  | 15 µg/mL
Cc1cn([C@H]2C[C@H](N=[N+]=[N-])[C@@H](COP(=O)(O)OC[C@@H]3CC[C@H](n4cnc5c(=O)[nH]cnc54)O3)O2)c(=O)[nH]c1=O |  | >100 µM
CCCSc1nsc(-c2ccccc2)c1C#N |  | 200 µg/mL
Cc1ccc(C(=O)Nc2ccc(S(=O)(=O)O)c3cc(S(=O)(=O)O)cc(S(=O)(=O)O)c23)cc1NC(=O)c1cccc(NC(=O)Nc2cccc(C(=O)Nc3cc(C(=O)Nc4ccc(S(=O)(=O)O)c5cc(S(=O)(=O)O)cc(S(=O)(=O)O)c45)ccc3C)c2)c1 |  | 1821 µg/mL
Nc1ncnc2c1ncn2[C@H]1[C@H](O)[C@H](O)[C@]2(CO)O[C@H]12 |  | 50 µg/mL
O=C(O)Cc1ccc(O)c(O)c1 |  | 261 µg/mL
Nc1ncnc2c1ncn2[C@H]1OC[C@@](F)(CCP(=O)(O)O)[C@H]1F | MTT | >100 µM
NC(=O)c1c[nH]cc1-c1ccc(Cl)cc1 |  | 16 µg/mL
Nc1ncnc2c1ncn2[C@H]1C=C(F)[C@@H](CO)S1 | MTT | >100 µM
CC(C)(C)OC(=O)N1[C@H]2CC[C@@H]1C(n1cnc3c(NC4CC4)ncnc31)C2 | MTS | >135 µM
Cc1ccc2c(c1)C(=O)C(=O)N2CCn1cc(CN2CCN(c3cc4c(cc3F)c(=O)c(C(=O)O)cn4C3CC3)CC2)nn1 | MTT | 167 µM
N#Cc1c(N2CCCC2)nsc1-c1ccccc1 |  | 7 µg/mL
O=c1cnn([C@@H]2O[C@H](CO)[C@@H](O)[C@H]2O)c(=O)[nH]1 |  | >100 µg/mL
O=C(Cc1nn(Cc2ccc(Br)cc2F)c(=O)c2ccccc12)N1CCN(C(=O)c2ccc3c(c2)OCO3)CC1 | MTT | 103 µM
O=C1C(=O)N(CCn2cc(CN3CCN(c4cc5c(cc4F)c(=O)c(C(=O)O)cn5C4CC4)CC3)nn2)c2ccc(F)cc21 | MTT | 41.45 µM
O=[N+]([O-])c1cn2c(n1)OCC(OCc1ccc(OC(F)(F)F)cc1)C2 |  | >128 µM
CCOC(=O)CSc1nsc(-c2ccccc2)c1C#N |  | 200 µg/mL
CCn1cc(C(=O)O)c(=O)c2cc([N+](=O)[O-])c3cccnc3c21 | luminescence | >100 µg/mL
Nc1nc2c(ncn2COCCOP(=O)(O)C(=O)O)c(=O)[nH]1 |  | >2857 µM
O=C([O-])C(F)(F)F.O=C([O-])C(F)(F)F.c1ccc2c(c1)[C@H]1[NH2+][C@@H]2CC1n1cnc2c([NH2+]C3CC3)ncnc21 | MTS | >91 µM
CC(=O)OC1CC2Cc3ccccc3C3(O)COC213 |  | 4.46 µg/mL
CCOc1c2ccccc2nc2oc3ccccc3c12 | MTT | 10.34 µg/mL
Nc1nc(=O)n([C@H]2C=C(F)[C@@H](CO)S2)cc1F | MTT | >100 µM
CC(C)[C@H]1C(=O)OC[C@@H](NC(=O)c2cnc3ccccc3n2)C(=O)N[C@@H](C)C(=O)N(C)[C@@H]2CSSC[C@H](C(=O)N1C)N(C)C(=O)[C@H](C)NC(=O)[C@H](NC(=O)c1cnc3ccccc3n1)COC(=O)[C@H](C(C)C)N(C)C2=O |  | 0.4 µg/mL
O=C1/C(=C/c2ccc(OCCCN3CCOCC3)cc2)CC/C1=C\c1ccc(OCCCN2CCOCC2)cc1 | MTT | >9 µM
Cn1cc(NC(=O)c2cc(NC(=O)CN=C(N)N)cn2C)cc1C(=O)NCCC(=N)N |  | >10 µg/mL
Cc1cn([C@H]2C[C@H](N=[N+]=[N-])[C@@H](COP(=O)(OCCC#N)OC[C@@H]3CC[C@H](n4cnc5c(N)ncnc54)O3)O2)c(=O)[nH]c1=O |  | ≥100 µM
CCCCCC(=O)N1C[C@H]2CC(n3cnc4c(Cl)ncnc43)[C@@H]1C2 | MTS | >71 µM
Nc1nccc2c1ncn2[C@@H]1C=C(CO)[C@@H](O)[C@H]1O |  | 0.05 µg/mL
O=[N+]([O-])c1oc2ccc3ccccc3c2c1CCO |  | 1.75 µg/mL
Nc1ncnc2c1ncn2[C@@H]1O[C@H](CO)C[C@H]1O |  | 200 µg/mL
C[N+](C)=c1ccc2nc3c(ccc4ccccc43)oc-2c1.[Cl-] |  | 0.62 µg/mL
Nc1nc2c(ncn2[C@H]2OC[C@@](F)(CCP(=O)(O)O)[C@H]2F)c(=O)[nH]1 | MTT | >100 µM
CCOC(=O)c1cc(-c2cc3ccccc3s2)on1 |  | >128 µM
Clc1ccc2c(c1)Nc1ccccc1S2 |  | 1.4 µg/mL
O=C(Cc1nn(Cc2ccc(Br)cc2F)c(=O)c2ccccc12)N1CCN(Cc2ccccc2)CC1 | MTT | 114 µM

The last 10 rows once more:

structure	read by	value
Cc1cn([C@H]2C[C@H](N=[N+]=[N-])[C@@H](COP(=O)(OCCC#N)OC[C@@H]3CC[C@H](n4cnc5c(N)ncnc54)O3)O2)c(=O)[nH]c1=O		≥100 µM
CCCCCC(=O)N1C[C@H]2CC(n3cnc4c(Cl)ncnc43)[C@@H]1C2	MTS	>71 µM
Nc1nccc2c1ncn2[C@@H]1C=C(CO)[C@@H](O)[C@H]1O		0.05 µg/mL
O=[N+]([O-])c1oc2ccc3ccccc3c2c1CCO		1.75 µg/mL
Nc1ncnc2c1ncn2[C@@H]1O[C@H](CO)C[C@H]1O		200 µg/mL
C[N+](C)=c1ccc2nc3c(ccc4ccccc43)oc-2c1.[Cl-]		0.62 µg/mL
Nc1nc2c(ncn2[C@H]2OC[C@@](F)(CCP(=O)(O)O)[C@H]2F)c(=O)[nH]1	MTT	>100 µM
CCOC(=O)c1cc(-c2cc3ccccc3s2)on1		>128 µM
Clc1ccc2c(c1)Nc1ccccc1S2		1.4 µg/mL
O=C(Cc1nn(Cc2ccc(Br)cc2F)c(=O)c2ccccc12)N1CCN(Cc2ccccc2)CC1	MTT	114 µM